Tested on: MetTyr

## P. falciparum M1 aminopeptidase
  HPLC Assay Conv; 1 mM peptide, 1 mM enzyme, 30 C/1 hr: 7%
